Results of unrelated studies side by side (data: NIAID ChemDB).

All rows: tests in culture; species: Mycobacterium tuberculosis

Neighbouring rows are from separate reports. MIC bound: limit read from a one-dose screen. Two numbers with a dash give a range or band. An empty or dashed field is not shown. ECn: concentration that inhibits the pathogen or its effect by n%. Inhibition is in % at the dose shown (toxicity tests: loss of growth or viability). A number after MIC or MFC names an inhibition level or a share of isolates.

compound	read by	cells	strain	setting	mutations	dose	endpoint	result
CC(=O)OC[C@H]1O[C@@H](O[C@@H]([C@H](OC(C)=O)[C@H](C=O)OC(C)=O)[C@@H](COC(C)=O)OC(C)=O)[C@H](OC(C)=O)[C@@H](OC(C)=O)[C@H]1OC(C)=O			H37Rv			6.25 µg/mL	inhibition	0%
CO[C@H]1/C=C/O[C@@]2(C)Oc3c(C)c(O)c4c(O)c(c(/C=N/N5CCN(C)CC5)c(O)c4c3C2=O)NC(=O)/C(C)=C\C=C\[C@H](C)[C@H](O)[C@@H](C)[C@@H](O)[C@@H](C)[C@H](OC(C)=O)[C@@H]1C	resazurin		H37Rv				MIC90	0.078 µg/mL
CC1(C)CC(N=c2cc3n(-c4ccc(Cl)cc4Cl)c4ccccc4nc-3cc2Nc2ccc(Cl)cc2Cl)CC(C)(C)N1			TBRP321 (INH RMP-resistant)				MIC	0.06 µg/mL
O=C(NN1C(=O)CCC1=O)c1ccc(-n2cccc2)cc1	resazurin		H37Rv				MIC	6.25 µg/mL
CC(=O)[C@@H]1CC[C@]2(C)CC[C@]3(C)[C@H](CC[C@@H]4[C@@]5(C)CC[C@H](O)C(C)(C)[C@@H]5CC[C@]43C)[C@@H]12			H37Rv				MIC	>128 µM
O=C(O)c1cc(-c2ccc(O)c(O)c2)nc2cc3ccccc3cc12	BACTEC		H37Rv			12.5 µg/mL	inhibition	-31%
CC(CC(=O)NN)Nc1ccc2ccccc2c1			Drug-resistant			10 µg/mL	inhibition	100%
CCCCN(CCCC)CCc1c[nH]c2ccccc12	resazurin		H37Rv				MIC	39 µg/mL
O=[N+]([O-])c1ccc(CN2CC3CN(c4ccc(OC(F)(F)F)cc4)CC3C2)o1	resazurin		Clinical Isolate 16995		INH RFP resistant		MIC90	3.24 µg/mL
CC(C)=CCC/C(C)=C\CO			H37Rv				MIC	128 µg/mL
CCN(CC)CCN1c2ccc(C)cc2Sc2ccc3ccccc3c21	BACTEC		H37Rv				MIC bound	≤12.5 µg/mL
NC[C@H]1O[C@H](O[C@H]2[C@H](O)[C@@H](O[C@H]3O[C@H](CO)[C@@H](O)[C@H](N)[C@H]3O)[C@H](N)C[C@@H]2N)[C@H](O)[C@@H](O)[C@@H]1O			H37Rv				MBC	16 µg/mL
Nc1ccc(Sc2cccc(Cl)c2Cl)c2ncccc12			H37Rv				MIC	>200 µg/mL
CC(C)(C)c1cccc(N2CC3CN(Cc4ccc([N+](=O)[O-])o4)CC3C2)c1	resazurin		Clinical Isolate 16995		INH RFP resistant		MIC90	0.07 µg/mL
CC[C@H]1OC(=O)[C@H](C)[C@@H](O[C@H]2C[C@@](C)(OC)[C@@H](OC(C)=O)[C@H](C)O2)[C@H](C)[C@@H](O[C@@H]2O[C@H](C)C[C@H](N(C)C)[C@H]2O)C(C)(O)C[C@@H](C)/C(=N\OCCCC2CCCCC2)[C@H](C)[C@@H](O)[C@]1(C)O			3				MIC	3.13 µg/mL
O=[N+]([O-])c1ccc(S(=O)(=O)c2ccc(O)cc2)c2ncccc12			H37Rv				MIC	40 µg/mL
CN[C@@H]1[C@H](O[C@H]2[C@H](O[C@H]3[C@H](O)[C@@H](O)[C@H](N=C(N)N)[C@@H](O)[C@@H]3N=C(N)N)O[C@@H](C)[C@]2(O)C=O)O[C@@H](CO)[C@H](O)[C@H]1O			MTB25 (S)				MIC	0.3 µg/mL
O=[N+]([O-])c1ccccc1Sc1ccc([N+](=O)[O-])c2cccnc12			H37Rv				MIC	200 µg/mL
COc1cc(C)c2sc3ccccc3c(=O)c2c1NCCN(C)C.O=C(O)/C=C/C(=O)O	BACTEC		H37Rv				MIC	12.5 µg/mL
CCCn1cnc2cc(NCc3ccc(Cl)cc3Cl)ccc21	GFP						MIC	37.5 µM
CN[C@@H]1[C@H](O[C@H]2[C@H](O[C@H]3[C@H](O)[C@@H](O)[C@H](N=C(N)N)[C@@H](O)[C@@H]3N=C(N)N)O[C@@H](C)[C@]2(O)C=O)O[C@@H](CO)[C@H](O)[C@H]1O			H37Rv				MIC	≤0.5 µg/mL
N#Cc1ccc(N2CC3CC2CN3Cc2ccc([N+](=O)[O-])o2)cc1	resazurin		H37Rv				MIC90	<0.016 µg/mL
COC(C(=O)[C@@H](O)[C@@H](C)O)C1Cc2cc3cc(OC4CC(OC(C)=O)C(OC5CC(O)C(OC)C(C)O5)C(C)O4)cc(O)c3c(O)c2C(=O)[C@H]1OC1CC(OC2CC(OC3CC(C)(O)C(O)C(C)O3)C(O)C(C)O2)C(O)C(C)O1	BACTEC		H37Rv			12.5 µg/mL	inhibition	13%
Nc1ccc(Sc2nc3ccccc3[nH]2)c2ncccc12			H37Rv				MIC	100 µg/mL
C=C[C@]1(C)C=C2CC[C@@H]3[C@](C)(CCC[C@@]3(C)C(=O)O)[C@H]2CC1			H37Rv				MIC	15 µg/mL
Cc1cnc2c(O)cccc2c1			M 607				MIC50	5–10 µg/mL
Cc1cc(C)c2c(=O)n(CC(O)CN3CCN(c4cccc(C(F)(F)F)c4)CC3)sc2n1	BACTEC		H37Rv				EC50	<12.5 µg/mL
C[C@@H](C(=O)N1C(=O)N(C(=O)[C@H](C)[C@H](O)c2ccccc2)[C@@H](c2ccccc2)[C@@H]1c1ccccc1)[C@H](O)c1ccccc1	BACTEC		H37Rv			12.5 µg/mL	inhibition	21%
CC(Oc1ccccc1)C(=O)N/N=C1\CCOc2ccccc21			H37Rv			12.5 µg/mL	inhibition	50–64%
O=C(O)c1cc(C(=O)O)cc(N2C(=O)c3ccccc3C2=O)c1	BACTEC		H37Rv				MIC bound	>12.5 µg/mL
CO[C@H]1/C=C/O[C@@]2(C)Oc3c(C)c(O)c4c(O)c(c(N5CCN(Cc6c(C)cc(C)cc6C)CC5)c(O)c4c3C2=O)NC(=O)/C(C)=C\C=C\[C@H](C)[C@H](O)[C@@H](C)[C@@H](O)[C@@H](C)[C@H](OC(C)=O)[C@@H]1C			3181-4				MBC	0.06 µg/mL
O=c1oc2cccnc2n1CCN1CCN(c2ccc(Oc3ccccc3)cc2)CC1	resazurin		H37Rv			6.25 µg/mL	inhibition	87%
CC1(C)C=Cc2c(ccc(C(=O)/C=C/c3ccc(O)cc3)c2O)O1	resazurin		H37Rv				MIC	9.76 µg/mL
Cc1[nH]n(-c2cc(S(=O)(=O)O)ccc2Cl)c(=O)c1N=Nc1ccc(C(=O)Nc2ccc(S(=O)(=O)O)cc2)cc1	BACTEC		H37Rv			12.5 µg/mL	inhibition	0%
Cc1cc(C)c2c(=O)n(CC(=O)OCCN3CCN(c4ccccc4)CC3)sc2n1	BACTEC		H37Rv			12.5 µg/mL	inhibition	0%
C=C1CC[C@@H](O)[C@]2(C)CC[C@@H](C(C)CO)[C@H](O)[C@@H]12			H37Rv				MIC	>128 µg/mL
Cc1ccc(Oc2ccc(N)c3cccnc23)cc1C			H37Rv				MIC	40 µg/mL
CC(C)(C)c1cccc(N2CCC3(CCN(Cc4ccc([N+](=O)[O-])o4)CC3)CC2)c1	resazurin		H37Rv				MIC90	<0.016 µg/mL
Cn1c2ccccc2c2nnc(NCCCO)nc21	resazurin		H37Rv				MIC bound	>6.25 µg/mL
COc1ccccc1N1CCN(Cn2sc3nc(C)cc(C)c3c2=O)CC1	BACTEC		H37Rv				EC50	<12.5 µg/mL
Cc1ccc2cccnc2c1O			H37Rv				MIC50	0.5–1 µg/mL
Cc1cc(C)c2c(=O)n(CN3CCN(c4ccccc4)CC3)sc2n1	BACTEC		H37Rv			12.5 µg/mL	inhibition	0%
Cc1ccccc1S(=O)(=O)c1ccc([N+](=O)[O-])c2cccnc12			H37Rv				MIC	100 µg/mL
CCCCNc1c(CN)cnc2cc(Cl)ccc12	resazurin		H37Rv			6.25 µg/mL	inhibition	59%
CC(C)CCC[C@@H](C)CCC[C@@H](C)CCCC(C)CC(=O)O			H37Rv				MIC	>128 µg/mL
O=[N+]([O-])c1ccc(CN2CCC3(CC2)CCN(c2ccc(C(F)(F)F)cc2)CC3)o1	resazurin		Clinical Isolate 16833		INH RFP resistant		MIC90	>10 µg/mL
CC1(C)CC[C@]2(CO)CC[C@]3(C)C(=CCC4[C@@]5(C)CC[C@H](O)C(C)(C)C5CC[C@]43C)C2C1			H37Rv				MIC	64 µM
Clc1ccc(-c2csc(-n3cccc3)n2)cc1	resazurin		H37Rv				MIC	0.4 µg/mL
CN(C)CCCN1c2ccccc2Sc2ccc(Cl)cc21			Isolate A drug-susceptible				MIC	10 µg/mL
CCC1Cn2cc([N+](=O)[O-])nc2O1			1 isolates rifampin-resistant				MIC	0.08 µg/mL
NNC(=O)c1ccncc1			MTB25 (S)				MIC	0.12 µg/mL
C[C@H](CC[C@H]1OC1(C)C)[C@H]1CC[C@@]2(C)[C@@H]3CC[C@H]4C(C)(C)C(=O)CC[C@@]45C[C@@]35CC[C@]12C			H37Rv				MIC	8 µg/mL
CC(Nc1ccc2ccccc2c1)C(=O)NN			Drug-resistant				EC50	0.5 µg/mL
C=C1C(=O)OC2C1CCC(C)C1CCC(=O)C12C			H37Rv				MIC	32 µg/mL
CCCCCCCCCCCCCCCC(=O)Nc1ccn([C@H]2CC[C@@H](COP(=O)(O)OC[C@H]3O[C@@H](n4ccc(NC(=O)CCCCCCCCCCCCCCC)nc4=O)C[C@@H]3OP(=O)(O)OC[C@H]3O[C@@H](n4cc(C)c(=O)[nH]c4=O)C[C@@H]3N=[N+]=[N-])O2)c(=O)n1	resazurin		H37Rv				MIC bound	>6.25 µg/mL
COc1ccccc1N1CCN(CCCCn2sc3nc(C)cc(C)c3c2=O)CC1	BACTEC		H37Rv				EC50	<12.5 µg/mL
CC1(C)CC(N=c2cc3n(-c4ccc(Cl)c(Cl)c4)c4ccccc4nc-3cc2Nc2ccc(Cl)c(Cl)c2)CC(C)(C)N1		Macrophages	H37Rv	inside macrophages		0.005 µg/mL	inhibition	95%
O=C(O)c1cc(O)c2ncccc2c1			M 607				MIC50	>25 µg/mL
COC(=O)c1c(C)ccc2c(O)c3c(cc12)C(=O)c1c2c(cc(O)c1C3=O)C1(C)OC(C)(O2)C(O)C(N(C)C)C1O	BACTEC		H37Rv				MIC	12.8 µg/mL
CC(C)N=c1cc2n(-c3ccc(Cl)cc3)c3ccccc3nc-2cc1Nc1ccc(Cl)cc1	broth dilution / resazurin		MDR1				MIC	1 µg/mL
CC(C)(C)c1ccc(N2CCC3(CCN(Cc4ccc([N+](=O)[O-])o4)CC3)CC2)cc1	resazurin		Clinical Isolate 16995		INH RFP resistant		MIC90	2.47 µg/mL
O=c1/c(=C\c2ccccc2)sc2n1C(c1ccccc1)C1(O)CCCCC1N=2	BACTEC		H37Rv				MIC bound	>12.5 µg/mL
Cc1ccc(C)n1-c1ccc(C(=O)NN2C(=O)[C@H]3CCCC[C@H]3C2=O)cc1	resazurin		H37Rv				MIC	6.25 µg/mL
CCC1CN2CCc3cc(OC)c(OC)cc3C2CC1CC1c2cc(OC)c(OC)cc2CCN1N=O	BACTEC		H37Rv			12.5 µg/mL	inhibition	8%
Cc1cc(=O)[nH]c2ccccc12			M 607				MIC50	>25 µg/mL
CO[C@H]1/C=C/O[C@@]2(C)Oc3c(C)c(O)c4c(O)c(c(/C=N/N5CCN(Cc6ccccc6)CC5)c(O)c4c3C2=O)NC(=O)/C(C)=C\C=C\[C@H](C)[C@H](O)[C@@H](C)[C@@H](O)[C@@H](C)[C@H](OC(C)=O)[C@@H]1C			PAS-R				MIC	0.05 µg/mL
NNC(=O)c1ccncc1			Isolate R1				MIC	0.031 µg/mL
NC(=O)NC(=O)c1nccnc1C(=O)O	BACTEC		H37Rv			12.5 µg/mL	inhibition	18%
CC1(C)CC[C@]2(C(=O)O)CC[C@]3(C)C(=CCC4[C@@]5(C)CCC(=O)C(C)(C)C5CC[C@]43C)C2C1			H37Rv				MIC	16 µg/mL
NCCCNCCCCNCCCN	BACTEC		H37Rv				MIC bound	>12.8 µg/mL
Cc1ccccc1Sc1ccc(N)c2cccnc12			H37Rv				MIC	40 µg/mL
CC1=C(N)C(=O)C2=C(C1=O)N1C[C@H]3[C@H](N3C)[C@]1(O)[C@@H]2COC(N)=O	BACTEC		H37Rv				MIC bound	≤12.8 µg/mL
O=C(O)CCCc1ccc(O)c2ncccc12			H37Rv				MIC50	5–10 µg/mL
Nc1c(C(=O)O)nnc2cc(Cl)c(Cl)cc12	BACTEC		H37Rv				MIC bound	>12.5 µg/mL
Cc1ccc(C)n1-c1ccc(C(=O)NN2C(=O)C=CC2=O)cc1	resazurin		H37Rv				MIC	12.5 µg/mL

The first 6 rows once more:

compound,read by,cells,strain,setting,mutations,dose,endpoint,result
CC(=O)OC[C@H]1O[C@@H](O[C@@H]([C@H](OC(C)=O)[C@H](C=O)OC(C)=O)[C@@H](COC(C)=O)OC(C)=O)[C@H](OC(C)=O)[C@@H](OC(C)=O)[C@H]1OC(C)=O,,,H37Rv,,,6.25 µg/mL,inhibition,0%
CO[C@H]1/C=C/O[C@@]2(C)Oc3c(C)c(O)c4c(O)c(c(/C=N/N5CCN(C)CC5)c(O)c4c3C2=O)NC(=O)/C(C)=C\C=C\[C@H](C)[C@H](O)[C@@H](C)[C@@H](O)[C@@H](C)[C@H](OC(C)=O)[C@@H]1C,resazurin,,H37Rv,,,,MIC90,0.078 µg/mL
CC1(C)CC(N=c2cc3n(-c4ccc(Cl)cc4Cl)c4ccccc4nc-3cc2Nc2ccc(Cl)cc2Cl)CC(C)(C)N1,,,TBRP321 (INH RMP-resistant),,,,MIC,0.06 µg/mL
O=C(NN1C(=O)CCC1=O)c1ccc(-n2cccc2)cc1,resazurin,,H37Rv,,,,MIC,6.25 µg/mL
CC(=O)[C@@H]1CC[C@]2(C)CC[C@]3(C)[C@H](CC[C@@H]4[C@@]5(C)CC[C@H](O)C(C)(C)[C@@H]5CC[C@]43C)[C@@H]12,,,H37Rv,,,,MIC,>128 µM
O=C(O)c1cc(-c2ccc(O)c(O)c2)nc2cc3ccccc3cc12,BACTEC,,H37Rv,,,12.5 µg/mL,inhibition,-31%